The values that follow come from patent publication US20220000860A1, “COMPOUNDS, COMPOSITIONS, AND METHODS FOR TREATING HUMAN IMMUNODEFICIENCY VIRUS” (OYAGEN, INC., priority 2017, published 2022).

Common to all, as to type: cell-based, HIV
Series [1] deals with IIIB (Subtype B). Briefly: PBMC Acute Infection, IIIB. The note with it: for SI50: SI50=CC50/EC50, isolate IIIB; for SI90: SI90=CC90/EC90, isolate IIIB. Here is the method:
(§1) PHA-stimulated cells from at least two normal donors were pooled (i.e. mixed together), diluted in fresh medium to a final concentration of 1×10^6 cells/mL, and plated in the interior wells of a 96-well round bottom microplate at 50 μL/well (5×10^4 cells/well). Pooling of mononuclear cells from more than one donor was used to minimize the variability observed between individual donors in quantitative and qualitative differences in HIV infection and overall response to the PHA and IL-2 of primary lymphocyte populations. Each plate contained virus control wells (cells plus virus) and experimental wells (drug plus cells plus virus) of either 00KE_KER2008 (Subtype A), IIIB (Subtype B), or 98US_MSC5016 (Subtype C). Test drug dilutions were prepared at a 2×concentration and 100 μL of each concentration was placed in appropriate wells. Fifty μL of a predetermined dilution of virus stock was placed in each test well (final MOI≅0.1). After this period, cell-free supernatant samples were collected for analysis of reverse transcriptase (RT) activity with an RT assay. […] In the Table below SI50=CC50/EC50 and SI90=CC90/EC90.

In series [2] the test system is 00KE_KER2008 (Subtype A). Briefly: PBMC Acute Infection, 00KE_KER2008. The note with it: for SI50: SI50=CC50/EC50, isolate 00KE-KER2008, subtype A; for SI90: SI90=CC90/EC90, isolate 00KE-KER2008, subtype A. Here is the method:
as §1

In series [3] the test system is 98US_MSC5016 (Subtype C). The series is described as follows: PBMC Acute Infection, 98US_MSC5016. To be noted: for SI50: SI50=CC50/EC50, isolate 98US_MSC5016, subtype C; for SI90: SI90=CC90/EC90, isolate 98US_MSC5016, subtype C. Here is the method: as §1

Regarding `CC[C@@]1(O)C(=O)NCc2c1cc1n(c2=O)Cc2cc3c(N)cccc3nc2-1` [Compound O5-9A, (S)-10-Amino-4-ethyl-4-hydroxy-1,2-dihydroquinolino[2′,3′:3,4]pyrrolo[1,2-b][2,7]naphthyridine-3,14(4H,12H)-dione], the SI50 in series [1] is 68; in series [2], 185; in series [3] it was 154. The SI90 in series [1] is recorded as >318; in series [2] it was >435; in series [3], >455.
As to `CCc1c2c(nc3ccc(N)cc13)-c1cc3c(c(=O)n1C2)CNC(=O)[C@]3(O)CC` [Compound O5-SN, (S)-9-Amino-4,11-diethyl-4-hydroxy-1,2-dihydroquinolino[2′,3′:3,4]pyrrolo[1,2-b][2,7]naphthyridine-3,14(4H,12H)-dione], the values for the SI50 in series [1], in series [2] and in series [3] were 753, 422 and 457, respectively. Moreover, the SI90 in series [1] is reported as >4020; in series [2] it was >5618; in series [3], >5000.
With `CCc1c2c(nc3ccc(OC(=O)N4CCC(N5CCCCC5)CC4)cc13)-c1cc3c(c(=O)n1C2)CNC(=O)[C@]3(O)CC` [Irino-L, (S)-4,11-diethyl-4-hydroxy-3,14-dioxo-1,2,3,4,12,14-hexahydroquinolino[2′,3′:3,4]pyrrolo[1,2-b][2,7]naphthyridin-9-yl [1,4′-bipiperidine]-1′-carboxylate], the SI50 is given as 8 in series [1], 8 in series [2] and 10 in series [3]. In addition, the SI90 in series [1] is reported as 10; in series [2], 11; in series [3], 12.
With `CCc1c2c(nc3ccc(O)cc13)-c1cc3c(c(=O)n1C2)CNC(=O)[C@]3(O)CC` [SN38-L, (S)-4,11-Diethyl-4,9-dihydroxy-1,2-dihydroquinolino[2′,3′:3,4]pyrrolo[1,2-b][2,7]naphthyridine-3,14(4H,12H)-dione], the SI50 in series [1] was found to be 464; in series [2] it was 315; in series [3], 315. The SI90 in series [1] was 982; in series [2], 1824; in series [3] it was 1766.
